{"source": "PubChem BioAssay AID504761, Drosophila RNAi Screening Center, 2011", "test": "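Insect host genes that dengue virus relies on to spread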 (primary screen)", "cells": "D.Mel-2 cells from Drosophila", "knock-down reagent": "long dsRNA against Drosophila genes", "treatment": "infection with dengue virus type 2; dose and infection time not stated", "measurement": "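Per well on two replicate plates, imaging gave the percent of cells positive for viral envelope protein, ranked by infection, and a nuclear count of cells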", "scale": "infection score: higher = more virus-infected cells", "hit rule": "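Very low infection ranking in both replicate wells (chance probability at most 0.065), then a retest showing infection dropped 1.5-fold or more at p below 0.05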", "meaning of the calls": "active = confirmed: knock-down lowers infection; inactive = not picked or not confirmed", "note": "The deposit covers about 22,000 reagents; this is an unselected part of those that have a named target and a result. Of all reagents, 116 (0.52%) are marked active. 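Calls depend on retest data that are not deposited; infection was ranked per plate without normalising between plates; the unit of the infection score is not given.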 Reagents against one gene are numbered here. Not all columns of the deposit are shown. Not given: the amount of reagent, the time to read-out."}
{"Gene": "Sema2a (GeneID 36846)", "reagent": 1, "infection score, replicate 1": 22.9, "activity call": "inactive"}
{"Gene": "MYPT-75D (GeneID 40032)", "reagent": 1, "infection score, replicate 1": 17.5, "activity call": "inactive"}
{"Gene": "CG7492 (GeneID 38859)", "reagent": 1, "infection score, replicate 1": 4.9, "activity call": "inactive"}
{"Gene": "CG14174 (GeneID 39139)", "reagent": 1, "infection score, replicate 1": 1.84, "activity call": "inactive"}
{"Gene": "CG8112 (GeneID 41033)", "reagent": 1, "infection score, replicate 1": 3.64, "activity call": "inactive"}
{"Gene": "CG4502 (GeneID 34002)", "reagent": 1, "infection score, replicate 1": 1.32, "activity call": "inactive"}
{"Gene": "Mos (GeneID 36404)", "reagent": 1, "infection score, replicate 1": 4, "activity call": "inactive"}
{"Gene": "CG12502 (GeneID 38102)", "reagent": 1, "infection score, replicate 1": 1.07, "activity call": "inactive"}
{"Gene": "pgc (GeneID 5740599)", "reagent": 1, "infection score, replicate 1": 16.8, "activity call": "inactive"}
{"Gene": "Sgs1 (GeneID 33701)", "reagent": 1, "infection score, replicate 1": 14.1, "activity call": "inactive"}
{"Gene": "CG42286 (retired record) (GeneID 41002)", "reagent": 1, "infection score, replicate 1": 14.5, "activity call": "inactive"}
{"Gene": "Mnr (GeneID 33098)", "reagent": 1, "infection score, replicate 1": 3.18, "activity call": "inactive"}
{"Gene": "Mnr (GeneID 33098)", "reagent": 2, "infection score, replicate 1": 4.53, "activity call": "inactive"}
{"Gene": "Mnr (GeneID 33098)", "reagent": 3, "infection score, replicate 1": 3.31, "activity call": "inactive"}
{"Gene": "SsRbeta (GeneID 39768)", "reagent": 1, "infection score, replicate 1": 2.92, "activity call": "inactive"}
{"Gene": "CG10602 (GeneID 35146)", "reagent": 1, "infection score, replicate 1": 11.9, "activity call": "inactive"}
{"Gene": "Drice (GeneID 43514)", "reagent": 1, "infection score, replicate 1": 1.74, "activity call": "inactive"}
{"Gene": "Drice (GeneID 43514)", "reagent": 2, "infection score, replicate 1": 8.3, "activity call": "inactive"}
{"Gene": "CG5273 (GeneID 31021)", "reagent": 1, "infection score, replicate 1": 6.11, "activity call": "inactive"}
{"Gene": "tyn (GeneID 3354987)", "reagent": 1, "infection score, replicate 1": 2.67, "activity call": "inactive"}
{"Gene": "LRP1 (GeneID 35799)", "reagent": 1, "infection score, replicate 1": 3.12, "activity call": "inactive"}
{"Gene": "Cyp28d1 (GeneID 33749)", "reagent": 1, "infection score, replicate 1": 4.13, "activity call": "inactive"}
{"Gene": "Cyp28d1 (GeneID 33749)", "reagent": 2, "infection score, replicate 1": 4.4, "activity call": "inactive"}
{"Gene": "Cyp28d1 (GeneID 33749)", "reagent": 3, "infection score, replicate 1": 23, "activity call": "inactive"}
{"Gene": "clt (GeneID 117300)", "reagent": 1, "infection score, replicate 1": 5.81, "activity call": "inactive"}
{"Gene": "asp (GeneID 42946)", "reagent": 1, "infection score, replicate 1": 3.15, "activity call": "inactive"}
{"Gene": "rols (GeneID 39368)", "reagent": 1, "infection score, replicate 1": 3.35, "activity call": "inactive"}
{"Gene": "rols (GeneID 39368)", "reagent": 2, "infection score, replicate 1": 6.04, "activity call": "inactive"}
{"Gene": "rols (GeneID 39368)", "reagent": 3, "infection score, replicate 1": 0.96, "activity call": "inactive"}

Records above whose gene name starts with M or m (5):
{"Gene": "MYPT-75D (GeneID 40032)", "reagent": 1, "infection score, replicate 1": 17.5, "activity call": "inactive"}
{"Gene": "Mos (GeneID 36404)", "reagent": 1, "infection score, replicate 1": 4, "activity call": "inactive"}
{"Gene": "Mnr (GeneID 33098)", "reagent": 1, "infection score, replicate 1": 3.18, "activity call": "inactive"}
{"Gene": "Mnr (GeneID 33098)", "reagent": 2, "infection score, replicate 1": 4.53, "activity call": "inactive"}
{"Gene": "Mnr (GeneID 33098)", "reagent": 3, "infection score, replicate 1": 3.31, "activity call": "inactive"}
